These results are taken from patent US20240366728A1 (Carmot Therapeutics Inc., priority 2023, published 2024).

The nature of this series: general procedure: Fmoc solid-phase peptide synthesis; Rink Amide ProTide Resin (LL) or preloaded Wang (LL) resin; DIC/Oxyma. Conditions: whole synthesis, scale 0.15 mmol.

The substance “Exendin-Phe1 (FGEGTFTSDLSKQMEEEAVRLFIEWLLAGGPSSGAPPPS; C-terminal amide)” had an isolated mass of 27.7 mg. Besides, the “final HPLC purity” value (214 nm) is reported as 96.0%.
